Measurements published in patent publication US20160152689, “Compositions and methods for inhibiting thrombogenesis” (published 2016).

Assays:
[1] = biological target: Factor XIa (FXIa), human, human, P03951 19-625; test: cell-based or functional assay
[2] = biological target: Factor Xa (FXa), not stated, P00742 41-179; P00742 235-488; test: enzyme kinetics, dose-dependent inhibition with chromogenic substrate
trypsin, not stated = test: as above
[3] = biological target: plasmin, not stated, P00747 97-810; test: as above
[4] = biological target: kallikrein, not stated, P03952 20-638; test: as above
[5] = biological target: Factor VIIa (FVIIa), not stated, P08709 61-466; test: as above

Substance	IC50, FXIa inhibition, 40 min incubation [1] [nM]	Ki [2] [nM]	Ki (trypsin, not stated) [nM]	Ki [3] [nM]	Ki [4] [nM]	Ki [5] [nM]
rFasxiatorN17K (BF01 N(17)K)	2.96	–	–	–	–	–
rFasxiatorN17R (BF01 N(17)R)	0.94	–	–	–	–	–
rFasxiatorN17R,L19E (BF01 N(17)R, L19E)	1.26	718	9.7	146	5300	693
